From PubChem BioAssay AID435019 (Southern Research Specialized Biocontainment Screening …, 2010)

Tested on: mammalian cell viability, cytotoxicity counter-screen
Assay: mammalian cell cytotoxicity, dose response, cytotoxicity control for M. tuberculosis inhibitor project (AID 435019)

## O=[N+]([O-])c1cc([N+](=O)[O-])c(-c2cnn(-c3ccccc3)c2)c([N+](=O)[O-])c1
  CC50: 22.6 µM
